Anti-infective test results gathered from many reports (values: NIAID ChemDB through PubChem).

Shared fields: tests in culture; agent: Mycobacterium tuberculosis

Rows are shuffled and stem from different studies.

SMILES,strain,measure,mutations,method,tested at,value
Cc1ccc(C2c3c(nc(=S)[nH]c3N)Oc3c2c(C)nn3-c2ccccc2)cc1,H37Rv,inhibition,,,62.5 µg/mL,26%
CC(=O)OC[C@@H](OC(C)=O)[C@@H](/C=C/CC[N+](=O)[O-])OC(C)=O,H37Rv,inhibition,,agar,25 µg/mL,inactive
COc1cc(C)cc2c(O)c(-c3c(C)cc4c(O)ccc(O)c4c3OC)cc(O)c12,H37Rv,MIC,,,,>100 µg/mL
CC(=O)OCC1OC(n2c(C)cc(-c3ccco3)c(C#N)c2=S)C(OC(C)=O)C(OC(C)=O)C1OC(C)=O,H37Rv,MIC bound,,BACTEC,,>12.5 µg/mL
O=C(NN1C(=O)C(Cl)C1c1ccc(Cl)cc1Cl)c1ccccc1-c1nc2ccccc2[nH]1,H37Rv,inhibition,,,0.031 µg/mL,97%
CC(=O)Nc1nccnc1C(N)=O,H37Rv,MIC,,BACTEC,,≥12.5 µg/mL
CCCCCCCCCCSCC(N)=O,H37Rv,MIC,,,,>25 µg/mL
CC(C)CCC[C@@H](C)[C@H]1CC[C@H]2[C@@H]3CC=C4C/C(=N/NC(=O)c5ccncc5)CC[C@]4(C)[C@H]3CC[C@]12C,,MIC,,,,0.001 µg/mL
O=C(N/N=C/c1ccco1)c1ccccc1-c1nc2ccccc2[nH]1,H37Rv,inhibition,,,0.031 µg/mL,43%
N#Cc1nc2cc(Cl)ccc2nc1N,H37Rv,inhibition,,,12.5 µg/mL,23%
O=C(N/N=C/C(O)C(O)C(O)C(O)CO)c1cccnc1,,MIC,,,,10–100 µg/mL
CCCCCCCCCCP(=O)(O)CC(N)=O,H37Rv,MIC,,,,25 µg/mL
CC(=O)NC(C)CCC[C@H](OC(C)=O)[C@@H](COC(C)=O)OC(C)=O,H37Rv,inhibition,,agar,12.5 µg/mL,100%
COc1ccc(C2c3c(nc(=S)[nH]c3N)Oc3c2c(C)nn3-c2ccccc2)cc1,H37Rv,inhibition,,,62.5 µg/mL,56%
CCc1nc2ccccc2n1CCCCOc1ccccc1Cl,H37Rv,fold resistance,Rv1339 V90M,turbidity / fluorescence,,0.8
Cc1cc2c(cc1C)[n+]([O-])c(C#N)c(N)[n+]2[O-],H37Rv,MIC,,,,1.56 µg/mL
O=C(N/N=C/C=C/c1ccccc1)c1ccncc1,,MIC,,,,0.1–1 µg/mL
CCc1nc2ccc(C)cc2n1CCCNc1ccc(C)cc1C,H37Rv,MIC90,WT,turbidity / fluorescence,,1 µM
CC(=O)c1cc([N+](=O)[O-])c2nc(C(C)(C)C)ccc2c1,H37Rv,inhibition,,,6.25 µg/mL,0%
O=C(N/N=C/c1ccccc1Cl)c1ccccc1-c1nc2ccccc2[nH]1,H37Rv,EC50,,,,>0.031 µg/mL
N#Cc1c(N2CCN(c3ccc([N+](=O)[O-])cc3)CC2)[n+](=O)c2ccccc2n1[O-],H37Rv,EC50,,,,<6.25 µg/mL
Cc1ccc(C2C(C#N)=C(N)Oc3c2c(C)nn3-c2ccccc2)cc1,H37Rv,inhibition,,,62.5 µg/mL,97%
C/C(=N\NC(N)=S)c1ccccc1,H37Rv,MIC,,,,0.4 µg/mL
Cc1cc(NCC(=O)NN)ccc1Cl,H37Rv,MIC,,BACTEC,,≥12.5 µg/mL
CC(=O)OC[C@@H](OC(C)=O)[C@@H](/C=C/C(O)C[N+](=O)[O-])OC(C)=O,H37Rv,inhibition,,agar,25 µg/mL,100%
CC(C)(C)c1cc(C(C)(C)C)c2cccc([N+](=O)[O-])c2n1,H37Rv,MIC,,,,>6.25 µg/mL
Cc1cc2c(cc1C)[n+](=O)c(C(=O)Nc1ccccc1C)c(C)n2[O-],H37Rv,MIC,,,,>6.25 µg/mL
O=C(N/N=C/c1ccccc1)c1cc(-c2ccccc2)nc2ccccc12,,MIC,,,,>200 µg/mL
NC(=O)c1c2c(n3ccccc13)C(=O)c1ccccc1C2=O,H37Rv,MIC bound,,resazurin,,>6.25 µg/mL
COc1c(C(C)=O)cc(N)c2nc(C(C)C)ccc12,H37Rv,inhibition,,,6.25 µg/mL,0%
S=C1SCN(c2ccccc2)CN1c1ccccc1,H37Rv,MIC bound,,BACTEC,,>12.5 µg/mL
COc1cc2c(cc1Cl)n([O-])c(C#N)c(N1CCN(c3ccc([N+](=O)[O-])cc3)CC1)[n+]2=O,H37Rv,inhibition,,,6.25 µg/mL,100%
Cc1nn(-c2ccccc2)c2c1C(c1cccc(Cl)c1)C(C#N)=C(N)O2,H37Rv,inhibition,,,62.5 µg/mL,13%
CCCCCCCCOc1c(C(C)=O)cc(N)c2nccc(CC)c12,H37Rv,MIC,,,,>6.25 µg/mL
Cc1cc2c(cc1C)[n+](=O)c(C(=O)NC(C)(C)C)c(C)n2[O-],H37Rv,inhibition,,,6.25 µg/mL,0%
CC(=O)Nc1ccc(/C=N/NC(N)=S)cc1,ATCC 27294,MBC,,,,30 µg/mL
Clc1ccc(OCCCCn2ccnc2)cc1,H37Rv,MIC99,,turbidity / fluorescence,,>20 µM
O=C(N/N=C/c1cccc([N+](=O)[O-])c1)c1ccccc1-c1nc2ccccc2[nH]1,H37Rv,EC50,,,,<0.031 µg/mL
CN(C)CCNC(=O)c1cccc2[nH]c(-c3ccncc3)nc12,H37Rv,inhibition,,BACTEC,6.25 µg/mL,0%
N#Cc1c(N2CCN(c3ccc([N+](=O)[O-])cc3)CC2)[n+](=O)c2ccc(-c3ccc([N+](=O)[O-])cc3)cc2n1[O-],H37Rv,EC50,,,,<6.25 µg/mL
CC(=O)OC[C@@H](OC(C)=O)[C@H](/C=C/CC(C)[N+](=O)[O-])OC(C)=O,H37Rv,inhibition,,agar,25 µg/mL,100%
Cc1nn(-c2ccccc2)c2c1C(c1cccc([N+](=O)[O-])c1)C(C#N)=C(N)O2,H37Rv,inhibition,,,62.5 µg/mL,41%
Cc1cccc(OC(=O)c2ccc(N)cc2O)c1,H37Rv (p-aminosalicylate-resistant),MIC,,,,75 µg/mL
COc1ccc2c(c1)[n+]([O-])c(C#N)c(N)[n+]2[O-],H37Rv,EC50,,,,<6.25 µg/mL
O=C1c2ccccc2C(=O)N1Cc1ccc([N+](=O)[O-])cc1Cl,H37Rv,inhibition,,BACTEC,12.5 µg/mL,11%
CCCCCCCCCCCC(CC1OC(=O)C1CCCCCC)OC(=O)C(CC(C)C)NC=O,H37Rv,MIC,,,,50 µg/mL
Cc1nn(-c2ccccc2)c2c1C(c1ccccc1Cl)c1c(nc(=S)[nH]c1N)O2,H37Rv,inhibition,,,62.5 µg/mL,57%
CN[C@@H]1[C@H](O[C@H]2[C@H](O[C@H]3[C@H](O)[C@@H](O)[C@H](N=C(N)N)[C@@H](O)[C@@H]3N=C(N)N)O[C@@H](C)[C@]2(O)C=O)O[C@@H](CO)[C@H](O)[C@H]1O,H37Rv,MIC,,,,≤6 µg/mL
COc1ccc(/C=N/NC(=O)c2ccncc2)cc1OC,,MIC,,,,1 µg/mL
O=C(NN1C(=O)C(Cl)C1c1ccccc1)c1ccccc1-c1nc2ccccc2[nH]1,H37Rv,inhibition,,,0.031 µg/mL,96%
CC(=O)c1cc([N+](=O)[O-])c2nc(C(C)C)ccc2c1C(C)C,H37Rv,inhibition,,,6.25 µg/mL,96%
Nc1ccc(C(=O)Oc2ccccc2)c(O)c1,H37Rv,MIC,,,,0.005 µg/mL
COc1cc(/C=N/NC(=O)c2cccc([N+](=O)[O-])c2)ccc1O,H37Rv,inhibition,,BACTEC,12.5 µg/mL,14%
COc1cc(C)cc2c1C(=O)C=C(c1c(C)cc3c(c1O)C(=O)C=CC3=O)C2=O,H37Rv,MIC,,,,>100 µg/mL
CC1C(=O)OCN1S(=O)(=O)C(C)(C)C,H37Rv,inhibition,,BACTEC,12.5 µg/mL,0%
CCCCCCCCS(=O)(=O)CC(=O)O,H37Rv,MIC,,,,12.5 µg/mL
O=C(N/N=C/c1ccccc1[N+](=O)[O-])c1cccnc1,,MIC,,,,10 µg/mL
O=C1OCC2OC(=O)c3cc(O)c(O)c(O)c3-c3c(O)c(O)c(O)c4c3C(=O)OC(C2OC(=O)c2cc(O)c(O)c(O)c2-c2c1cc(O)c(O)c2O)C1OC(=O)c2c-4c(O)c(O)c(O)c2[C@H]1O,H37Rv,MIC,,BACTEC,,≥12.5 µg/mL
Cc1nn(-c2ccccc2)c2c1C(c1ccccc1)C(C#N)=C(N)O2,H37Rv,inhibition,,,62.5 µg/mL,21%
Cc1cc2c(cc1C)[n+](=O)c(N1CCN(c3ccc([N+](=O)[O-])cc3)CC1)c(C#N)n2[O-],H37Rv,MIC,,,,>0.2 µg/mL
COc1ccccc1N1CCN(C(=O)c2c(C)n([O-])c3cc(C)c(C)cc3[n+]2=O)CC1,H37Rv,MIC,,,,>6.25 µg/mL
Nc1[nH][nH]c(=O)c1N,H37Rv,MIC bound,,BACTEC,,>12.5 µg/mL
N#Cc1nc2cc(C(F)(F)F)ccc2nc1Cl,H37Rv,inhibition,,,12.5 µg/mL,37%
Nc1cccc2ccc(N/N=C/c3ccccc3O)nc12,H37Rv,MIC bound,,BACTEC,,>12.5 µg/mL
CC(=O)OC[C@@H](OC(C)=O)[C@H](/C=C/CC[N+](=O)[O-])OC(C)=O,H37Rv,inhibition,,agar,6.25 µg/mL,100%
S=C(NCCNC(=S)[S][Sn]([c]1ccccc1)([c]1ccccc1)[c]1ccccc1)[S][Sn]([c]1ccccc1)([c]1ccccc1)[c]1ccccc1,EMB-R,MIC,,,,0.8 µg/mL
CCCCCCCCS(=O)(=O)CC(=O)OCc1ccccc1,H37Rv,MIC,,,,6.25 µg/mL
N#Cc1nc2ccccc2nc1Cl,H37Rv,MIC,,,,12.5 µg/mL
NC(=O)c1cc(C(=O)c2ccccc2O)c[nH]c1=O,H37Rv,MIC bound,,BACTEC,,>12.5 µg/mL
COc1cc(/C=N/NC(=O)c2ccccc2-c2nc3ccccc3[nH]2)cc(OC)c1OC,H37Rv,EC50,,,,>0.031 µg/mL
COc1cc2c(cc1Cl)[n+](=O)c(C#N)c(Cl)n2[O-],H37Rv,EC50,,,,<6.25 µg/mL
NNC(=O)c1ccc2ncccc2c1,,MIC,,,,>40 µg/mL
Cc1c(C(=O)N2CCN(Cc3ccccc3)CC2)[n+](=O)c2cc(Cl)c(Cl)cc2n1[O-],H37Rv,MIC,,,,>6.25 µg/mL
Cc1cc2nc(Cl)c(C#N)nc2cc1C,H37Rv,inhibition,,,6.25 µg/mL,14%
CC1COc2c(N3CCN(C)CC3)c(F)cc3c(=O)c(C(=O)O)cn1c23,900201,MIC,,,,0.5 µg/mL
Cc1cc2c(cc1C)[n+](=O)c(C(=O)N1CCN(c3ccc(Cl)cc3)CC1)c(C)n2[O-],H37Rv,inhibition,,,6.25 µg/mL,0%
CC(C)c1ccc2cccc([N+](=O)[O-])c2n1,H37Rv,inhibition,,,6.25 µg/mL,3%
CC(C)NC(=O)c1ccccc1-[s+]1c2ccccc2c(=O)n1C(C)C,H37Rv,MIC bound,,BACTEC,,>6.25 µg/mL
NCC[C@H](O)C(=O)N[C@@H]1C[C@H](N)[C@@H](O[C@H]2O[C@H](CN)[C@@H](O)[C@H](O)[C@H]2O)[C@H](O)[C@H]1O[C@H]1O[C@H](CO)[C@@H](O)[C@H](N)[C@H]1O,Isolate CKN64-302 (rrs A1401G mutation),MIC,,,,>64 µg/mL
CCc1nc2ccccc2n1CCCCOc1ccc(C)c(C)c1,H37Rv,fold resistance,Rv1339 V90M,turbidity / fluorescence,,0.5
COc1ccc(CCn2nnc3ccccc3c2=O)cc1OC,H37Rv,MIC bound,,BACTEC,,>12.5 µg/mL
C[C@H]1COc2c(N3CCN(C)CC3)c(F)cc3c(=O)c(C(=O)O)cn1c23,5 isolates drug-resistant,MIC90,,,,1 µg/mL
CC(=O)OC[C@@H](OC(C)=O)[C@H](/C=C/C=C(\C)[N+](=O)[O-])OC(C)=O,H37Rv,inhibition,,agar,25 µg/mL,inactive
CC(=O)NC1=C(OS(=O)(=O)c2ccc(C)cc2)CN(C)C1=O,H37Rv,MIC,,BACTEC,,≥12.5 µg/mL
Nc1ccc(C(=O)OCc2ccccc2)c(O)c1,H37Rv (p-aminosalicylate-resistant),MIC,,,,100 µg/mL
CC(=O)NC1NCCNC1=O,H37Rv,MIC bound,,BACTEC,,>12.5 µg/mL
CC(=O)NCCCC[C@@H](OC(C)=O)[C@@H](COC(C)=O)OC(C)=O,H37Rv,inhibition,,agar,6.25 µg/mL,100%
CC12CC/C(=N\NC(=O)Cc3c[nH]c4ccccc34)C=C1CCC1C2CCC2(C)C(OC(=O)c3ccccc3)CCC12,H37Rv,MIC bound,,BACTEC,,>12.5 µg/mL
COc1cccc(/C=N/NC(=O)c2cccnc2)c1,,MIC,,,,0.001 µg/mL
FC(F)(F)c1ccc(NC(=S)SCc2ccc3c(c2)OCO3)cc1,H37Rv,MIC bound,,resazurin,,>6.25 µg/mL
Cc1nn(-c2ccccc2)c2c1C(c1ccc(F)cc1)c1c(nc(=S)[nH]c1N)O2,H37Rv,inhibition,,,62.5 µg/mL,61%

MIC50, MIC90 and the like: level of inhibition, or share of isolates inhibited. Fold resistance: result on the changed form divided by that on wild type. MIC bound comes from a single tested concentration. "inactive" is the filed call at that dose; no cut-off is given. Inhibition is in % at the dose shown (toxicity tests: loss of growth or viability). ECn: concentration that inhibits the pathogen or its effect by n%. a–b is a range or a potency band. An empty or dashed field is not shown.